Measurements as given in PubChem BioAssay AID841 (Emory University Molecular Libraries Screening Center, 2007).
This is a selection; strong and weak results do not stand in their true shares. Calls of active or inactive are those of the source. No stated cut-off is given here; in the data, active means protection mostly above about 24% (no sharp cut-off); inactive means mostly below about 26%.

Assay: blockers of measles virus-induced cell death – single point, MLSMR library, absorbance, measles RdRp inhibitor project, primary screen (AID 841)
Conditions: Measles virus-infected cells, CPE protection, at 4 µM, hits give high values

Compound	protection (pct of control)
O=P1(Nc2ccccn2)COc2ccccc2OC1	inactive: 16.6%
Clc1n[nH]nc1-c1nn[nH][15n]1	inactive: 20.9%
O=P1(Nc2ncccn2)COc2ccccc2OC1	inactive: 15.1%
Cc1ccc(OCC(=O)OC2CN3CCC2CC3)cc1 (stereo not drawn)	inactive: 9.07%
O=P1(Nc2ccc(Br)cn2)COc2ccccc2OC1	inactive: 3.9%
Cc1nn(-c2ccccc2)c2c1P(=O)(N1CCOCC1)N(C)C(c1ccccc1)=N2 (stereo not drawn)	inactive: 9.65%
CCOP1(=S)c2c(C)nn(CCC#N)c2N=C(c2ccc(F)cc2)N1C (stereo not drawn)	inactive: 10.1%
O=[N+]([O-])c1ccc2c(c1)nnn2O	inactive: 20.2%
CCOP1(=S)c2c(C)nn(CCC#N)c2N=C(c2ccccc2F)N1C (stereo not drawn)	inactive: 10.9%
O=P(Nc1nccs1)(c1ccccc1)c1nc2ccccc2s1 (stereo not drawn)	inactive: 16.9%
Cc1ccc(NCCc2c([N+](=O)[O-])cc([N+](=O)[O-])cc2[N+](=O)[O-])cc1	inactive: 11.2%
COc1cc(C2NCCC3(OCCO3)C2(C)C)cc(OC)c1OC (stereo not drawn)	inactive: 29.6%
CCOP(=O)(Nc1cccc2ccccc12)OCC	inactive: 5.87%
Cc1cccc(OCC(=O)OC2CN3CCC2CC3)c1 (stereo not drawn)	inactive: 17.1%
Cc1c2c(nc3ccccc13)SC(C(Cl)Cl)C2 (stereo not drawn)	inactive: 36.4%
O=C(OC1CN2CCC1CC2)C12CC3CC(CC(C3)C1)C2 (stereo not drawn)	inactive: 2.02%
ClCCSc1nnc(-c2cccnc2)o1	inactive: 36.1%
CCN(CC)C(=S)SC(NC=O)C(Cl)(Cl)Cl (stereo not drawn)	inactive: 2.56%
O=[N+]([O-])c1cc([N+](=O)[O-])c(-c2ccn[nH]2)s1	inactive: 21.2%
Cc1ccc2nc3c(c(C)c2c1)CC(C(Cl)Cl)S3 (stereo not drawn)	inactive: 7.84%
Cc1cc(SC(NC(=O)c2ccccc2)C(Cl)(Cl)Cl)nc(C(C)C)n1 (stereo not drawn)	inactive: 6.72%
CCC(C)N(CC(C)C)C(=S)SC(NC(C)=O)C(Cl)(Cl)Cl (stereo not drawn)	inactive: 18.1%
COP1(=S)c2c(C)nn(CCC#N)c2N=C(c2ccc(F)cc2)N1C (stereo not drawn)	inactive: 8.36%
O=C(COc1ccccc1)OC1CN2CCC1CC2 (stereo not drawn)	inactive: 4.53%

Compound	protection (pct of control)
CC1CCN(C(=O)Oc2c(Cl)cc(Cl)c3cccnc23)CC1	inactive: 4.67%
CN(C)C(=O)OCCc1n(C)cc[n+]1C	inactive: 4.36%
CCc1nc2c(n1)c1c(non1O)c1c2no[n+]1[O-]	inactive: 6.12%
O=[N+]([O-])c1cccc2n[nH]nc12	inactive: 39.3%
CC(=O)N1C2C3N(C(C)=O)C1C1N(C(C)=O)C(C(N1C(C)=O)N3C(C)=O)N2C(C)=O	inactive: 10.7%
CCN(N=Nc1nonc1N)c1nonc1N	inactive: 20.4%
Cc1cc(SC(NC(=O)c2ccc(F)cc2)C(Cl)(Cl)Cl)ncn1 (stereo not drawn)	inactive: 7.8%
CCOP(=O)(Nc1ccccc1)OCC	inactive: 11.1%
Oc1ccccc1CNc1ccccn1	inactive: 2.4%
O=C(NC(Sc1ccncn1)C(Cl)(Cl)Cl)c1ccccc1 (stereo not drawn)	inactive: 7.53%
Cc1c2non([O-])c-2c(C)[n+](=O)[n+]1[O-]	inactive: 8.98%
CC(C)CC(=O)NC(Sc1ccc(Cl)cc1)C(Cl)(Cl)Cl (stereo not drawn)	inactive: 10.4%
CN1CCCC(OC(=O)C(c2ccccc2)c2ccccc2)C1 (stereo not drawn)	inactive: 5.4%
O=P1(Nc2nc3ccc(Cl)cc3s2)COc2ccccc2O1 (stereo not drawn)	inactive: 19.7%
CCC(=O)N1C2C3N(C(=O)CC)C1C1N(C(=O)CC)C(C(N1C(=O)CC)N3C(=O)CC)N2C(=O)CC	inactive: 2.33%
COC(=O)c1cc2c(s1)N=C(c1ccccc1)N(C)P2(=O)N1CCOCC1 (stereo not drawn)	active: 84.6%
CC(=O)NC(SC(=S)N(CC(C)C)CC(C)C)C(Cl)(Cl)Cl (stereo not drawn)	inactive: 5.3%
CCOC(=O)NC(Sc1ccccc1)C(Cl)(Cl)Cl (stereo not drawn)	inactive: 4.06%
CC(=O)NC(SC(=S)N(C)C)C(Cl)(Cl)Cl (stereo not drawn)	inactive: 1.82%
O=C(OC1CN2CCC1CC2)c1cccc(Cl)c1 (stereo not drawn)	inactive: 10.1%
C(Cc1nn[nH]n1)Cc1nn[nH]n1	active: 24.1%
CC(C)C(=O)NC(Sc1ccccc1)C(Cl)(Cl)Cl (stereo not drawn)	inactive: 8.96%
O=P(Nc1nccs1)(c1ccccc1)c1ccccc1	inactive: 4.79%
c1nnnn1CCn1cnnn1	inactive: 10.4%
